Source: patent publication US7517998B2, “Non nucleoside reverse transcriptase inhibitors” (priority 2004, dated 2009)
Read-outs that look alike come from different tables or passages of the source.

Molecular target: K103NNY181C mutant reverse transcriptase (Human immunodeficiency virus type 1 group M subtype B, UniProt P04585, K690N/Y768C)
Assay: Reverse transcriptase enzymatic assay (PicoGreen), K103N/Y181C mutant RT
Format: biochemical, HIV-1
Settings: read-out: IC50 mut, enzymatic assay of Example 24
[1] = K103N/Y181C mutant reverse transcriptase

Structure (SMILES)	IC50 (mutant reverse transcriptase) [µM]	IC50 [1] [µM]
Cc1ccc(-c2c(SCC(=O)Nc3ccc(-c4ccc(CC(=O)O)cc4)cc3Cl)cnn2C)c(Cl)c1	0.178	
CC(C)(C#Cc1ccc(NC(=O)CSc2nnnn2-c2ccc(C3CC3)cc2Cl)c(Cl)c1F)OCCO[n+]1cccc([O-])c1		0.041
CC(C)(C#Cc1ccc(NC(=O)CSc2nnnn2-c2ccc(C(C)(C)C)cc2Cl)c(Cl)c1)OCC(=O)N1CCC(C(=O)O)CC1		0.026
